A mixed list of measured activities; the numbers were collected in NIAID ChemDB.

Shared fields: toxicity to cultured cells; endpoint: CC50

Two numbers with a dash give a range or band.

structure | cell line | read by | value
CN(C)C(=S)Oc1ccccc1C(=O)Nc1ccccc1 | HepG2 cell | MTT | >500 µM
CC(C)=CCC[C@]1(C)C=Cc2c(O)c3c(c(CC=C(C)C)c2O1)O[C@@]12C(=C[C@H]4CC1C(C)(C)O[C@]2(C/C=C(/C)C(N)=O)C4=O)C3=O | Jurkat cells | luminescence | 0.7 µM
Cc1cc(/C=N/NC(N)=S)c(C)c2c1oc1ccccc12 | VERO | - | 22.03 µg/mL
NC(=O)c1[nH]nc([C@@H]2O[C@H](CO)[C@@H](O)[C@H]2O)c1O | HeLa | - | 100 µg/mL
C[n+]1cc2c3c(ccc2c2ccc4cc5c(cc4c21)OCO5)OCO3 | Jurkat cells | luminescence | 2.2 µM
COc1cc(-c2ccccc2)c(OC)c(OC)c1O | ASK (Atlantic salmon kidney) | sulforhodamine / absorbance | >50 µM
O=C(Nc1ccc(Br)cc1)c1cc(Cl)ccc1OC(=O)N(c1ccccc1)c1ccccc1 | HepG2 cell | MTT | >100 µM
O=c1[nH]cnc2c1ncn2[C@H]1CC[C@@H](CO)O1 | HELA-CD4+ | - | 2.6 µM
CN1[C@H](CO)[C@@H](O)[C@H](O)[C@H]1CO | Karpas 45 cells | - | >100 µg/mL
CCCC(=O)OCc1cc(=O)n(C)c2c3c4c(cc12)c(C)cc(=O)n4CO3 | VERO | - | 1.2 µg/mL
C=C1CCOC2(C(O)C(C)(O)CO)NC(=O)C1(O)NC2=O | HeLa | - | >200 µg/mL
O=C1c2ccccc2C(=O)c2sc(Nc3ccc(Cl)c(Cl)c3)nc21 | VERO | - | 3.7 µg/mL
CC[C@@H](C(=O)[C@@H](C)[C@@H](O)[C@H](C)CCc1ccc(C)c(O)c1C(=O)O)[C@H]1O[C@](CC)([C@H]2CC[C@](O)(CC)[C@H](C)O2)C[C@@H]1C | Jurkat cells | luminescence | 0.9 µM
Nc1ccn([C@H]2CC[C@@H](CO)O2)c(=O)n1 | 2.2.15 | - | 10 µM
O=C1C=C2C(=CCOC2O)O1 | Jurkat cells | luminescence | 1 µM
CCCCOc1ccc(Nc2c[nH]c(=O)[nH]c2=O)cc1 | Vero cells | MTT | >50 µg/mL
CC(C)(C)CC(C)(C)c1ccc(OCCOP(=O)([O-])OCC[N+](C)(C)Cc2ccccc2)cc1 | MDA | MTT | >100 µM
CN1C[C@H](O)[C@H](O)[C@H]1CO | Karpas 45 cells | - | >100 µg/mL
CCN(CC)CCNc1ccc(C)c2sc3ccc(OC)cc3c(=O)c12 | VERO | - | 1.29 µg/mL
COc1cc(/C=C/c2ccc3ccc(C(=O)O)c(O)c3n2)cc(O)c1O | HeLaP4 | MTT | >100 µM
C[C@@H](CCOc1ccc(-c2ccc(Cl)cc2)cc1)CCN1CCN(c2ccncc2)C1=O | RD | - | >25 µM
CCCCCCCCCCCC(=O)OC[C@H](COP(=O)([O-])OCC[N+](C)(C)C)OC(=O)CCCCCCCCCCC | HeLa | - | >200 µg/mL
CC1CCCCN1.CC1CCCCN1C(=S)S | VERO | - | 3.5 µg/mL
FC(F)(F)c1ccc2c(N3CCN(CCCNc4ccnc5cc(Cl)ccc45)CC3)ccnc2c1 | Human foreskin fibroblasts | MTT / absorbance | 1.27 µM
CC(C)=CC[C@H]1C[C@@]2(C[C@H]3CCC(C)(C)C=C3C)C(=O)[C@](C(=O)c3ccccc3)(C(=O)C3=C2OC(C)(C)CC3)C1(C)C | ASK (Atlantic salmon kidney) | sulforhodamine / absorbance | >50 µM
COc1ccc(/C(C)=N/NC(=O)c2ccncc2)cc1OC | VERO | - | >10 µg/mL
CS(=O)(=O)OCCCNc1ccnc2cc(C(F)(F)F)ccc12 | Human foreskin fibroblasts | MTT / absorbance | 5.67 µM
O=c1cc(-c2ccc(Oc3c(O)cc4oc(-c5ccc(O)cc5)cc(=O)c4c3O)cc2)oc2cc(O)cc(O)c12 | MDCK | neutral red | 2 µg/mL
NC(=O)c1ncn([C@@H]2O[C@H](CO)[C@@H](O)[C@H]2O)n1 | Ava5 | - | 22 µM
Cc1ccc(-c2ccc3c(c2)C=C(C(=O)Nc2ccc(C[N+](C)(C)C4CCOCC4)cc2)CCC3)cc1 | MAGI-CCR5 | - | >10 µM
CC[C@@H]1[C@@H](C)O[C@@](O)([C@@H](C)[C@H](O)[C@H](C)[C@H]2OC(=O)/C=C/C=C/[C@H](C)[C@@H]([C@@H](C)[C@@H](O)[C@H](C)[C@@]3(O)C[C@@H](O[C@H]4C[C@H](O)[C@H](O)[C@H](C)O4)[C@H](CC)[C@@H](C)O3)OC(=O)/C=C/C=C/[C@@H]2C)C[C@H]1O[C@H]1C[C@H](O)[C@H](O)[C@H](C)O1 | HeLa | - | <10 µg/mL
OC[C@@H]1NC[C@H](O)[C@H]1O | Karpas 45 cells | - | >500 µg/mL
C[n+]1ccc(Nc2ccc(NC(=O)c3ccc(Nc4cc[n+](C)c5ccc([N+](=O)[O-])cc45)cc3[N+](=O)[O-])cc2)cc1 | VERO | - | >10 µg/mL
Cc1cc(C)cc(S(=O)(=O)c2c(C(N)=O)[nH]c3ccc(Cl)cc23)c1 | Lymphocytes | - | 18 µM
OC[C@@H]1[C@@H](O)[C@@H](O)CN1Cc1ccccc1 | Karpas 45 cells | - | >100 µg/mL
COc1cc(-c2ccccc2)c(O)c(OC)c1O | HT-29 | sulforhodamine / absorbance | >50 µM
CCCCOc1ccc(Nc2cn(C3C=CC(O)C3)c(=O)n(C3C=CC(O)C3)c2=O)cc1 | A549 cells | MTT | >50 µg/mL
O=c1c2cc(O)c(O)cc2oc2cc(O)cc(O)c12 | ASK (Atlantic salmon kidney) | sulforhodamine / absorbance | >50 µM
CO[C@@H]1C[C@@H](C[C@H]2CC[C@H](C)[C@H]([C@@H](C)C(=O)O)O2)O[C@]2(O[C@](C)([C@H]3CC[C@@](C)([C@@H]4O[C@@H]([C@H]5O[C@@](O)(CO)[C@H](C)C[C@@H]5C)C[C@@H]4C)O3)C[C@H]2C)[C@@H]1C | VERO | - | 0.07 µg/mL
CCCCCCCCCCCCCCCCOP(=O)([O-])OCCC[N+](C)(C)Cc1ccccc1 | HUVEC | MTT | >100 µM
COc1ccc(-c2cc(OC)c(O)c(OC)c2O)cc1 | ASK (Atlantic salmon kidney) | sulforhodamine / absorbance | >50 µM
CC(C)OC(=O)[C@H](C)N[P@](=O)(OC[C@H]1O[C@@](C#N)(c2ccc3c(N)ncnn23)[C@](C)(O)[C@@H]1OC(=O)C(C)C)Oc1ccccc1 | AD38 | ATP | >100 µM
CC(=O)NC[C@H]1CN(c2ccc(N3CCSCC3)c(F)c2)C(=O)O1 | VERO | - | >6.25 µg/mL
O=C1N[C@@H]([C@@H](O)CO)[C@H](O)[C@H]1O | Karpas 45 cells | - | >30 µg/mL
COc1cc(OC)c(NC(=O)NNC(=O)C(=O)NC2CC2)cc1Cl | VERO | - | >100 µg/mL
O=c1[nH]c(=O)n(C2C=CC(O)C2)cc1Nc1ccc(Oc2ccccc2)cc1 | Vero cells | MTT | >50 µg/mL
Nc1nc(=O)n([C@@H]2O[C@H](CO)[C@@H](O)[C@@H]2F)cc1I | WI-38 | - | 4 µM
C[C@@]1(O)[C@H](O)[C@@H](CO)O[C@H]1n1cnc2c(N)ncnc21 | Lunet-CD81 | ATP | >50 µM
CC(=O)N1C[C@@H](O)[C@H](O)[C@H](O)[C@@H]1C | Karpas 45 cells | - | >300 µg/mL
C[N+](C)=c1ccc2nc3c(ccc4ccccc43)oc-2c1.[Cl-] | VERO | - | 0.62 µg/mL
O=C1C(=O)N(CCCNc2ccnc3cc(C(F)(F)F)ccc23)c2cc(Br)ccc21 | Human foreskin fibroblasts | MTT / absorbance | 4.75 µM
NC(=O)c1ncn([C@@H]2O[C@H](CO)[C@@H](O)[C@H]2O)n1 | Panc-1 | - | 5–4500 µM
CC1=C(N)C(=O)C2=C(C1=O)N1C[C@H]3[C@H](N3C)[C@]1(O)[C@@H]2COC(N)=O | VERO | - | 0.4 µg/mL
CCCCCCCCCCCCCCCCOP(=O)([O-])OCCC[n+]1ccccc1 | MDA | MTT | 59.9 µM
COC(=O)/C=C/C(=O)c1ccc(OC)cc1 | THP-1 | MTT / absorbance | 7.61 µg/mL
O=C1C(=O)N(CN2CCN(c3ccnc4cc(Cl)ccc34)CC2)c2cc(Cl)ccc21 | Human foreskin fibroblasts | MTT / absorbance | 11.7 µM
O=P(Oc1ccccc1)(Oc1ccccc1)Oc1ccccc1 | Human foreskin fibroblasts | - | 133 µM
COC(=O)CC(O)(CCCC(C)(C)O)C(=O)O[C@@H]1C(OC)=C[C@]23CCCN2CCc2cc4c(cc2[C@@H]13)OCO4 | EBTR | - | <10 µM
NC[C@H]1O[C@H](O[C@H]2[C@H](O[C@@H]3O[C@H](CO)[C@@H](O)[C@H]3O)[C@@H](O)[C@H](N)C[C@@H]2N)[C@H](N)[C@@H](O)[C@@H]1O | HeLa | - | >100 µg/mL
CCC/C(C)=N/NC(=S)SC | VERO | - | 17 µg/mL
OC[C@H]1[C@H](O)[C@H](O)CN1Cc1ccccc1 | Karpas 45 cells | - | >100 µg/mL
COc1ccc2c(c1)[n+]([O-])c(/C(C)=N/NC(=O)c1ccccc1O)c(C)[n+]2[O-] | VERO | - | 6.06 µg/mL
OC[C@@H]1NC[C@H](O)[C@H](O)[C@H]1O | Karpas 45 cells | - | >500 µg/mL
CN(C)C(=S)Oc1ccc(Cl)cc1C(=O)Nc1ccc(Cl)cc1 | HepG2 cell | MTT | 83.51 µM
CO[C@H]1/C=C/O[C@@]2(C)Oc3c(C)c(O)c4c(O)c(c(/C=N/N5CCN(C)CC5)c(O)c4c3C2=O)NC(=O)/C(C)=C\C=C\[C@H](C)[C@H](O)[C@@H](C)[C@@H](O)[C@@H](C)[C@H](OC(C)=O)[C@@H]1C | Vero cells | MTT | >50 µg/mL
CCCCCCCCCCCCCCCCOP(=O)([O-])OCC[n+]1ccccc1 | HUVEC | MTT | 94 µM
CN(C)c1ccc(O)c2c1C[C@H]1C[C@H]3[C@H](N(C)C)C(=O)C(C(N)=O)=C(O)[C@@]3(O)C(=O)C1=C2O | Jurkat cells | luminescence | >100 µM
CCN(CC)CCNc1ccc(COC(=O)NC)c2sc3ccccc3c(=O)c12 | VERO | - | 0.85 µg/mL
CC(N)C12CC3CC(CC(C3)C1)C2 | Panc-1 | - | 10–4000 µM
Cc1c([N+](=O)[O-])oc2ccc3ccccc3c12 | VERO | - | >10 µg/mL
CC(CCOc1ccc(-c2ccc(Cl)cc2)cc1)CCN1CCN(c2ccncc2)C1=O | RD | - | >25 µM
CC(C)O/N=C/c1cc(NC(=S)OC(C)C)ccc1Cl | VERO | - | >10 µg/mL
CN(C(=O)Oc1ccccc1C(=O)Nc1ccccc1)c1ccccc1 | HepG2 | MTT | 279.9 µM
COc1cc2c3c(c1OC)Oc1ccc(cc1)CC1c4c(cc(OC)c(OC)c4Oc4ccc(cc4)CC3N(C)CC2)CCN1C | VERO | - | >12.5 µg/mL
O=c1cc(-c2ccc(O)c(-c3c(O)cc4oc(-c5ccc(O)cc5)cc(=O)c4c3O)c2)oc2cc(O)cc(O)c12 | MA-104 | visual reading | 56 µg/mL
O=[N+]([O-])c1oc2ccc3ccccc3c2c1CCO | VERO | - | 1.75 µg/mL
Nc1nc(=O)n(C=C=CCO)cc1F | 2.2.15 | - | >100 µM
OC[C@H](O)[C@@H]1[C@@H](O)[C@@H](O)CN1Cc1ccccc1 | Karpas 45 cells | - | >100 µg/mL
CCC(=O)OC[n+]1ccc2c(C)c3[nH]c4ccc(OC)cc4c3c(C)c2c1 | VERO | - | <0.257 µg/mL

The last 4 rows once more:

{"structure": "O=[N+]([O-])c1oc2ccc3ccccc3c2c1CCO", "cell line": "VERO", "value": "1.75 µg/mL"}
{"structure": "Nc1nc(=O)n(C=C=CCO)cc1F", "cell line": "2.2.15", "value": ">100 µM"}
{"structure": "OC[C@H](O)[C@@H]1[C@@H](O)[C@@H](O)CN1Cc1ccccc1", "cell line": "Karpas 45 cells", "value": ">100 µg/mL"}
{"structure": "CCC(=O)OC[n+]1ccc2c(C)c3[nH]c4ccc(OC)cc4c3c(C)c2c1", "cell line": "VERO", "value": "<0.257 µg/mL"}

Rows are shuffled and stem from different studies. Blank or dashed fields: not listed here. CCn is the concentration with n% toxicity to the cells.